Measured values as given in article PMC5999986.
pKd: −log10 of the molar value. For at least one entry, the source does not settle the construct or the ends of the probe.

Protein sequences, listed by entry. Tags and fused reporters are not part of them. Residues count along the entry.
UniProt P9WMF9, whole entry: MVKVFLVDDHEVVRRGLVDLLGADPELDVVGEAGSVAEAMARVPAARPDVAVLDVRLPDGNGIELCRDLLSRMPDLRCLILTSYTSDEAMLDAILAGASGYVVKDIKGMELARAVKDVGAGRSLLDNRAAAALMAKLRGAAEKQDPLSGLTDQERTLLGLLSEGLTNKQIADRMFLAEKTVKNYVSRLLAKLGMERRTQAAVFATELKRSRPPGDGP
UniProt P9WMF9, 144-217: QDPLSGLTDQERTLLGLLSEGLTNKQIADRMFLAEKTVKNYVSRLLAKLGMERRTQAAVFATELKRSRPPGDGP

Experiments:
[1] = biological target: DosR (DosRwt) (Mycobacterium tuberculosis) (UniProt P9WMF9); assay: ITC; settings: ITC: 20 mM Tris pH 8.0, 200 mM NaCl, 25 C, recombinant protein, residues 1-217, label: none (ethidium bromide stain)
[2] = biological target: DosR-C (Mycobacterium tuberculosis) (UniProt P9WMF9); assay: ITC; settings: ITC: 20 mM Tris pH 8.0, 200 mM NaCl, 25 C, recombinant protein, residues 144-217, protein details: C-terminal His6 (primer PTD2), label: none (ethidium bromide stain)

Sequence: TTGGGGACTAAAGTCCCTAA (double strand) [20-bp DosR regulon consensus DNA (EM1/EM2)]
- pKd [1]: 5.50
- pKd [2]: 6.28
